No end group written: not given here.
Experiment: Peptide binding to pDa-coated PDMS channels (RP-HPLC)
Settings: internal area of ca. 100 mm^2; RP-HPLC before and after

Substance | amount of bound peptide [µg]
KRRWPWWPWRLI-NH2 [Retro-Omiganan] | 12.35 ± 0.10
ILRWPWWPWRRK-NH2 [Omiganan] | 12.48 ± 0.22
